Reference: patent publication EP1370663B1, “MICROBIOLOGICAL METHOD FOR PRODUCING L-CARNITINE” (priority 2001, dated 2002)

Legend:
[1] = test system: HK1331b (DSM 3225); assay: Conversion of butyrobetaine esters to butyrobetaine and L-carnitine by strain HK1331b; assay type: cell-based, Agrobacterium/Rhizobium HK1331b (DSM 3225); details: in 144 h, 0,90% (w/v) ester
[2] = test system: HK1349 (DSM 3944); assay: Conversion of butyrobetaine esters to butyrobetaine and L-carnitine by strain HK1349 (HPLC of supernatant); assay type: cell-based, Agrobacterium/Rhizobium HK1349 (DSM 3944); details: for Reaktionsgemisch Summe: HK1349, 74 h, sum = BBMe or BBEt + Butyrobetain + L-Carnitin; for Reaktionsgemisch L-Carnitin: HK1349, L-carnitine formed after 74 h; for Reaktionsgemisch L-Carnitin / Reaktionsgemisch BB: educt 0,75% (w/v); for Reaktionsgemisch BB: HK1349, butyrobetaine formed after 74 h; for Umsetzung des Butyrobetain-esters: HK1349, in 74 h, 0,75% (w/v) ester

SMILES | Umsetzung des Butyrobetain-esters unter Bildung von Butyrobetain und L-Carnitin [1] | Reaktionsgemisch Summe [2] | Reaktionsgemisch L-Carnitin ([2]; 30°C) | Reaktionsgemisch BB ([2]; 30°C) | Umsetzung des Butyrobetain-esters [2] | Reaktionsgemisch BBEt ([2]; HK1349, unconverted ester after 74 h, educt 43,1 mmol/L (0,75% w/v), 30°C) | Reaktionsgemisch BBMe ([2]; HK1349, unconverted ester after 74 h, educt 46,9 mmol/L (0,75% w/v), 30°C)
CCOC(=O)CCC[N+](C)(C)C [BBEt, Butyrobetain-ethylester] | ca. 50% | 42 mmol/L | 10 mmol | 6 mmol/L | ca. 40% | 26 mmol/L | –
COC(=O)CCC[N+](C)(C)C [BBMe, Butyrobetain-methylester] | ca. 50% | 49 mmol/L | 9 mmol | 13 mmol/L | ca. 40% | – | 27 mmol/L
